# Primary screen of a compound library

From ChEMBL document CHEMBL3988442, “University of Dundee, Small-Polar-MMV Screening Library” (2021).

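Whole-cell growth test on Mycobacterium tuberculosis, read after 4 days in a medium based on cholesterol and the lipid DPPC; the read-out is not stated. Concentration: 50 µM. Higher reads as more growth inhibition (inferred: compounds with an IC50 in retests scored well above the rest). Of about 69,000 compounds tested this way, about 370 (0.54%) reached 50% or more in at least one test.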

The filed quantity is “Percent Effect” (%). How 0% and 100% were set is not recorded. Most values in the screen are low, and negative values occur. The entries come from a sample that favours strong results. Two or more numbers in one place are separate tests of the same structure; such repeats can differ widely.

SMILES,percent effect
Fc1ccccc1CN1CCC[C@H](Cn2nnc(-c3cccs3)n2)C1,-28.16% and 57.08%
CCc1ocnc1C(=O)N1CCOC(CCCC(C)C)C1 (stereo not shown),25.37%
Clc1cccc(-c2noc(CCN3CCN(c4ccncc4)CC3)n2)c1,38.29%
OCc1cc2ccccc2nc1N1CCCC1,14.41%
OC1(CN2CCN(c3cccc(C(F)(F)F)c3)CC2)CNCCOC1 (stereo not shown),30.09%
Cc1ccc(N2N=C(C(N)=O)S(=O)(=O)c3cccnc32)cc1,87.26%
Cc1cc(C(=O)NCc2cc(C)oc2C)no1,23.97%
CC(C)Oc1ccc(CSc2nnc(CN3CCCC3=O)o2)cc1,56.34%
CC(C)(C)c1n[nH]cc1CN1CCc2nc3ccsc3c(=O)n2CC1,-0.6749%
Cc1nc(N2CCOCC2)nc2c1CCN(Cc1ccsc1)CC2.O=C(O)C(F)(F)F,14.66% and 16.01%
O=C(c1coc(COc2cccc3cnccc23)n1)N1CCCCCC1,10.93% and -9.499%
CCOC1COC2(CCN(Cc3ccc4c(c3)OCO4)CC2)C1 (stereo not shown),70.51%
O=C(c1cc(COc2ccc3c(c2)OCO3)[nH]n1)N1CCSCC1,50.54% and 52.12%
COc1cccc(Nc2nc(-c3ccncc3)nc3c2CNCC3)c1.Cl,-29.19%
COc1ccccc1C(O)CNC(=O)Nc1ccccn1 (stereo not shown),-4.393%
Cc1c(C(=O)NCC2CCN(C)C2)n(C)c2c(C)cccc12 (stereo not shown),4.49%
Cc1cc(CNc2ccc3nc(C)sc3c2)no1,0.4344%
CNc1cc(N2CCCC2CNCc2c[nH]nc2C(C)(C)C)ncn1 (stereo not shown),-7.193% and -11.22%
c1cc(-c2cncnc2)cc(-c2ccn(CC3CCNC3)n2)c1 (stereo not shown),22.28%
Cn1cc(NC(=O)c2cc[nH]n2)cc(Cl)c1=O,82.38%
O=C(NC1CCCN(CCCc2ccccc2)C1)c1ccc(Cl)s1 (stereo not shown),73.35%
CN(C)c1cc(C(=O)Nc2cccnc2N2CCSCC2)ccn1,-11.75%
CCCc1cc(=O)[nH]c(-n2nc(C3CC3)cc2N)n1,66.33%
CCNC(=O)NC(=O)CNC(C)(C)c1ccc2c(c1)OCCO2,29.06%
O=C(c1ccc(NCc2cccc(F)c2)cc1)N1CCCC1,50.58%
COc1ccc(F)c(-c2cc(NCCO)nc(N)n2)c1,-9.925% and -1.808%
CC(C)C[C@H](N)COc1cccc(F)c1Oc1ccc(Cl)cc1,93.35%
CN(C)c1cc(C2CCCN2C(=O)c2noc3c2CCCC3)ccn1 (stereo not shown),-5.549%
NC(=O)NC(=O)CCN1CCC(C(=O)c2cc(F)ccc2F)CC1,-13.58%
CC(=O)N1CCCC1c1nnn2cc(Nc3ccccc3)ccc12.O=C(O)C(F)(F)F (stereo not shown),-2.79% and -1.181%
COc1cccc(O)c1CN1CCCC(Nc2cccc(F)c2)C1 (stereo not shown),18.55%
Cc1nsc(NC2CCOC3(CCCC3)C2)n1 (stereo not shown),18.7%
COc1cccc(S(=O)(=O)CCN2CCCCC2)c1,-24.81%
CCN(CC(O)c1ccc(C)cc1)C(=O)NC(C)C (stereo not shown),-13.11%
CC(CNC(=O)N1CCSCC1)Cc1cccs1 (stereo not shown),29.26% and 19.11%
COc1ccc(-c2noc(CN3CCc4cncnc4C3)n2)cc1,-1.186%
CC(C)Oc1ccc(CNC(=O)C2CCS(=O)(=O)C2)cn1 (stereo not shown),-8.315% and 9.045%
Cc1nsc(NCCNS(=O)(=O)c2ccccc2)n1,6.611%
O=S(=O)(CCc1ccccc1Cl)CC(O)CO (stereo not shown),0.8433%
c1cc(CN2CCCC(c3nnc(-c4cnccn4)o3)C2)ccn1 (stereo not shown),0.703%
CO[C@H]1CCN(Cc2nccs2)C[C@@H]1Cc1ccccc1,10.5%
CC(C)c1nc(CN(C)S(=O)(=O)c2cccs2)cs1,-4.496%
COc1ccc(C[C@H]2CN(C(=O)C3CC3)CC[C@H]2OC)cc1,4.934%
CCN(C)CC1CCN(c2ncc(Br)cn2)C1 (stereo not shown),-5.971%
Cc1nn2c(NCC(N)=O)cc(-c3ccccc3)nc2c1C,-25.49% and -3.028%
CC(C)C(C)(O)CNc1cccc(F)c1C#N (stereo not shown),1.862%
Cc1cccc(-c2ccc(C(=O)NCCN3CCOCC3)c(=O)[nH]2)c1,65.09%
CCC(CC)CN(C)Cc1nc(-c2ccccc2NS(C)(=O)=O)oc1C,16.11%
O=C(NCCNc1ccc(C(F)(F)F)cn1)c1ccc(Cl)cc1F,51.83%
COCCNc1nc(-c2ccc(S(=O)(=O)N3CCCCC3)cc2)cs1,-4.875%
CC(Nc1ncnc2c1NC(=O)CN2)c1ccc2c(c1)OCO2 (stereo not shown),9.34%
Cc1nnc(SCc2ccccn2)s1,-6.518%
Cc1nc(CN2CCN(CCCc3nc4ccccc4o3)CC2)no1,-26% and -5.577%
Cc1cc2n(n1)CCN(c1nc(N(C)C)nc3c1CCNC3)C2,9.655%
Cc1nnc2n1CCN(CCOc1ccccc1)C2,0.9715%
COc1ccsc1C(=O)NCCNc1ccccc1,10.48%
Cc1nc(N2CCCC2)nc2c1CCN(Cc1ccco1)CC2.O=C(O)C(F)(F)F,78.81%
CCN(C)S(=O)(=O)NCC(O)c1c(Cl)cccc1Cl (stereo not shown),-5.516%
CN(C)c1nc2c(c(N3CCc4ccccc4C3)n1)CCNC2,39.95% and 39.02%
CN(C)C(C(=O)N1CCC(CCO)CC1)c1ccccc1F (stereo not shown),-37.66%
CC(C)c1nnc(CNc2ccc(SC(F)(F)F)cc2)o1,52.82%
O=C(NCCNc1ccc(C(F)(F)F)cn1)c1ccc(Br)cc1F,36.14%
Cc1ccc(CN(CCCn2ccnc2)Cc2c[nH]cn2)s1.O=C(O)CC(O)(CC(=O)O)C(=O)O,-10.02%
O=C(O)C(F)(F)F.c1cnc(N2CCOCC3(CN(Cc4ccsc4)CCO3)C2)nc1 (stereo not shown),10.83%
Cl.Cn1nc(C2CCCN(Cc3cc(F)ccc3F)C2)c2nccnc21 (stereo not shown),69.98%
Cc1ccc(CN2CCOC3(CCN(C(=O)C4CCOC4)CC3)C2)cc1.O=C(O)C(F)(F)F (stereo not shown),13.17%
COCCOCCSc1nnc(Cc2ccccc2F)o1,15.04% and 41.4%
CCNc1ncc(C(=O)N2CCOC(CCCc3ccccc3)C2)cn1 (stereo not shown),20.72% and 25.68%
CCCS(=O)(=O)NCC(C)c1ccc(F)c(F)c1 (stereo not shown),-6.74%
Cc1nc2c(Nc3cccc(C#N)c3)nc(N)nc2n1C,87.03%
Cl.NC(CC1CCCC1)c1ccccc1 (stereo not shown),1.854%
COC(=O)c1cc(NCC(=O)NC(N)=O)cc(C(F)(F)F)c1,-9.729%
Cc1cc(F)cc(NC(=O)N(C)CC(C)(CO)CO)c1,13.72%
Cn1cc(CN2CCCC(CCc3ccc(F)cc3F)C2)cn1 (stereo not shown),9.703%
CC(CO)CSc1ncnc2[nH]ncc12 (stereo not shown),-9.407%
CN1CCN(C(=O)CCc2cc(Br)cs2)CC1,27.19% and 32.71%
CN1CCN(c2ccccc2NC(=O)c2ccco2)CC1,13.13%
Cc1cccc2c1cnn2CCCNC(=O)C1CC1,1.956%
O=C(NCCn1ccnc1)c1ccn(-c2ccccc2F)n1,4.353%
Cc1ccc(OCC(=O)NCc2ccccc2F)nc1,1.706%

Some entries from above, unchanged:

| SMILES | percent effect |
|---|---|
| `NC(=O)NC(=O)CCN1CCC(C(=O)c2cc(F)ccc2F)CC1` | -13.58% |
| `Cn1cc(NC(=O)c2cc[nH]n2)cc(Cl)c1=O` | 82.38% |
| `Cc1ccc(CN(CCCn2ccnc2)Cc2c[nH]cn2)s1.O=C(O)CC(O)(CC(=O)O)C(=O)O` | -10.02% |
| `c1cc(CN2CCCC(c3nnc(-c4cnccn4)o3)C2)ccn1` (stereo not shown) | 0.703% |
| `O=C(O)C(F)(F)F.c1cnc(N2CCOCC3(CN(Cc4ccsc4)CCO3)C2)nc1` (stereo not shown) | 10.83% |
| `Cc1cc(CNc2ccc3nc(C)sc3c2)no1` | 0.4344% |
| `CC(C)C[C@H](N)COc1cccc(F)c1Oc1ccc(Cl)cc1` | 93.35% |
| `Cc1nnc(SCc2ccccn2)s1` | -6.518% |